Measured values published in patent US4346087A, “Antibacterial surface active agent containing azaalkenelactam” (priority 1979, dated 1982).

Legend:
[1] = Metal corrosion inhibition in brake fluid A, steel; conditions: 100°±2° C., 120±2 hours, blank -0.20
[2] = Metal corrosion inhibition in brake fluid A, aluminum; conditions: 100°±2° C., 120±2 hours, blank +0.07
[3] = Metal corrosion inhibition in brake fluid A, copper; conditions: 100°±2° C., 120±2 hours, blank +0.18
[4] = Metal corrosion inhibition in brake fluid A, tin-plate; conditions: 100°±2° C., 120±2 hours, blank -0.15
[5] = Metal corrosion inhibition in brake fluid A, cast iron; conditions: 100°±2° C., 120±2 hours, blank -0.14
[6] = Metal corrosion inhibition in brake fluid A, brass; conditions: 100°±2° C., 120±2 hours, blank -0.20
[7] = Table 5, carboxylate derivatives […] by weight in brake fluid A
[8] = Table 4, azaalkenelactams […] by weight in brake fluid A

| Molecule | Weight change, steel [1, 7] [mg/cm^2] | Weight change, aluminum [2, 7] | Weight change, copper [3, 7] [mg/cm^2] | Weight change, tin-plate [4, 7] [mg/cm^2] | Weight change, cast iron [5, 7] [mg/cm^2] | Weight change, brass [6, 7] [mg/cm^2] | Weight change, steel [1, 8] [mg/cm^2] | Weight change, aluminum [2, 8] | Weight change, copper [3, 8] | Weight change, tin-plate [4, 8] [mg/cm^2] | Weight change, cast iron [5, 8] [mg/cm^2] | Weight change, brass [6, 8] [mg/cm^2] |
| --- | --- | --- | --- | --- | --- | --- | --- | --- | --- | --- | --- | --- |
| CCCCCCCCCCCCOCCNCCN1CC[N+](CC(=O)[O-])=C(C)CC1=O [4-dodecoxyaminoethyl-7-methyl-1-azonia-4-azacyclohept-7-en-5-one-1-acetate] | -0.01 | 0 mg/cm^2 | -0.01 | -0.02 | 0 | -0.01 | – | – | – | – | – | – |
| CCCCCCCCCCCCOCC(O)CN1CCC[N+](C(C)C(=O)[O-])=C(C)CC1=O (stereo not drawn) [1-docoxy(2-hydroxy)propyl-4-methyl-1-aza-5-azoniacyclooct-4-en-2-one-5-propionate] | -0.02 | 0 mg/cm^2 | -0.01 | -0.02 | -0.01 | -0.02 | – | – | – | – | – | – |
| CCCCCCCCCCCC(=O)OCCN1CCC[N+](CC(=O)[O-])=C(C)CC1=O [1-lauroyloxyethyl-4-methyl-1-aza-5-azoniacyclooct-4-en-2-one-5-acetate] | -0.02 | +0.02 mg/cm^2 | 0 | -0.03 | -0.02 | 0 | – | – | – | – | – | – |
| CCCCCCCCCc1ccc(OCC(O)CNCCNCCNCCN2CC[N+](CC(=O)[O-])=CCC(C)C2=O)cc1 (stereo not drawn) [4-nonylphenoxy(2-hydroxy)propylaminoethylaminoethylaminoethyl-6-methyl-4-aza-1-azoniacyclooct-8-en-5-one-1-acetate] | -0.02 | +0.02 mg/cm^2 | 0 | -0.02 | -0.02 | -0.01 | – | – | – | – | – | – |
| CCCCCCCCCCCCCCNCCN1CCN=CCCC1=O [Example 53, 4-tetradecylaminoethyl-2,3,6,7-tetrahydro-1,4-diazocin-5-one] | – | – | – | – | – | – | 0 | +0.01 mg/cm^2 | 0 mg/cm^2 | -0.01 | -0.01 | -0.01 |
| CCCCCCCCCCCCN1CCCN=C(C)CC1=O [Example 3, 1-dodecyl-4-methyl-3,6,7,8-tetrahydro-1,5-diazocin-2-one] | – | – | – | – | – | – | 0 | +0.01 mg/cm^2 | +0.01 mg/cm^2 | 0 | -0.02 | -0.01 |
| CCCCCCCCC=CCCCCCCCCN1CCCN=C(C)CC1=O [Example 4, 1-(9-octadecenyl)-4-methyl-3,6,7,8-tetrahydro-1,5-diazocin-2-one] | – | – | – | – | – | – | 0 | 0 mg/cm^2 | +0.02 mg/cm^2 | -0.01 | -0.01 | -0.01 |
| CCCCCCCC(=O)NCCN1CCN=CCCC1=O [Example 56, 4-octamidoethyl-2,3,6,7-tetrahydro-1,4-diazocin-5-one] | – | – | – | – | – | – | -0.01 | +0.02 mg/cm^2 | +0.01 mg/cm^2 | -0.02 | -0.02 | -0.02 |
| 1-hydroxyethyl-2-undecylimidazolineumbetaine [reference compound] | -0.16 | +0.10 mg/cm^2 | -0.12 | -0.12 | -0.12 | -0.24 | – | – | – | – | – | – |
